# pKd: −log10 of the molar value.
# Biological target: Melittin (UniProt P01501)
# Experiment: ITC
substance,measurement,value
Human recombinant calmodulin (CaM) (from UniProt P0DP23 1-149) (natural protein),pKd,> 7.52
same,dH,11.5 kcal/mol
same,stoichiometry N,1
